Measured values: US6969738B2, “Malic acid diester surfactants” (Air Products and Chemicals, Inc., priority 1999, dated 2005)

Tested on: biomass seed from a Easton, Pa. Wastewater Treatment Plant, not acclimatized
Assay: Carbonaceous Biological Demand test (CBOD5, CBOD28), percent biodegradation = CBOD/COD x 100
Conditions: for Percent Biodegradation at 5 days, average / Percent Biodegradation at 5 days, Trial 1 / Percent Biodegradation at 5 days, Trial 2 / Percent Biodegradation at 5 days, Trial 3: CBOD5, unacclimatized biomass; for Percent Biodegradation at 5 days, average: average of trials 1-3; for Percent Biodegradation at 28 days, average / Percent Biodegradation at 28 days, Trial 4 / Percent Biodegradation at 28 days, Trial 5 / Percent Biodegradation at 28 days, Trial 6: CBOD28, unacclimatized biomass; for Percent Biodegradation at 28 days, average: average of trials 4-6

Structure (SMILES) | Percent Biodegradation at 5 days, average | Percent Biodegradation at 5 days, Trial 1 | Percent Biodegradation at 5 days, Trial 2 | Percent Biodegradation at 5 days, Trial 3 | Percent Biodegradation at 28 days, average | Percent Biodegradation at 28 days, Trial 4 | Percent Biodegradation at 28 days, Trial 5 | Percent Biodegradation at 28 days, Trial 6
CCCCOC(=O)CC(O)C(=O)OCCCC (racemic) [Example 2, Dibutyl-DL-malate] | 35% | 38% | 35% | 32% | 100 100 100 100 100% | 100 100 100 100 100% | 100 100 100 100 100% | 100 100 100 100 100%
CC(C)COC(=O)CC(O)C(=O)OCC(C)C (racemic) [Example 3, Diisobutyl-DL-malate] | 14% | 16% | 13% | 14% | 100 100 100 100% | 100 100 100 100% | 100 100 100 100% | 100 100 100 100%
CCC(C)OC(=O)CC(O)C(=O)OC(C)CC (racemic) [Example 4, Di-sec-butyl-DL-malate] | 1% | 0% | 3% | 0% | 93% | 79% | 100% | 100%
CCCCCOC(=O)CC(O)C(=O)OCCCCC (racemic) [Example 5, Dipentyl-DL-malate] | 49% | 53% | 47% | 47% | 87% | 91% | 88% | 83%
CC(C)CCOC(=O)CC(O)C(=O)OCCC(C)C (racemic) [Example 6, Diisoamyl-DL-malate] | 35% | 31% | 37% | 39% | 77% | 100% | 76% | 54%
CCC(C)COC(=O)CC(O)C(=O)OCC(C)CC (racemic) [Example 7, Di(2-methylbutyl)-DL-malate] | 29% | 26% | 30% | 30% | 86% | 88% | 85% | 86%
CCCCCCOC(=O)CC(O)C(=O)OCCCCCC (racemic) [Example 8, Dihexyl-DL-malate] | 51% | 61% | 46% | 47% | 94% | 88% | 95% | 100%
CC(C)CC(C)OC(=O)CC(O)C(=O)OC(C)CC(C)C (racemic) [Example 9, Di(4-methyl-2-pentyl)-DL-malate] | 2% | 2% | 2% | 0% | 39% | 29% | 29% | 59%
O=C(CC(O)C(=O)OCc1ccccc1)OCc1ccccc1 (racemic) [Example 10, Dibenzyl-DL-malate] | 44 — — 44% | 44 — — 44% | – | – | 89% | 79% | 91% | 96%
CC(C)OC(=O)C[C@H](O)C(=O)OC(C)C [Example 1, Diisopropyl-(S)-(−)-malate] | 1% | 2% | 0% | 0% | 100 100 100 100% | 100 100 100 100% | 100 100 100 100% | 100 100 100 100%
